Assay results from PubChem BioAssay AID449728 (The Scripps Research Institute Molecular Screening Center, 2010).
This is a selection; strong and weak results do not stand in their true shares. Active and inactive are the calls of the source.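 The calls were made as follows: active = inhibition above the campaign's mean inhibition across all tested compounds plus 3 SD (cut at about 9.9% in these data); inactive = the rest.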

Test: bacterial viability reduction in E. coli – absorbance, OD600, counter-screen for AddAB inhibitor project, primary screen (AID 449728);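 also: uninfected addAB+ strain grown without phage in ampicillin broth; 0% = DMSO wells and 100% = ciprofloxacin 0.95 µg/ml wells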
Conditions: E. coli V3065 growth, 18 h, at 11.9 µM, hits give high values

SMILES | inhibition
CC1=C2N=C(C=C3N=C(C(C)=C4[N-][C@@](C)([C@@H]5N=C1[C@](C)(CCC(=O)NC[C@@H](C)OP(=O)([O-])O[C@H]1[C@@H](O)[C@@H](n6cnc7cc(C)c(C)cc76)O[C@@H]1CO)[C@H]5CC(N)=O)[C@@](C)(CC(N)=O)[C@@H]4CCC(N)=O)[C@@](C)(CC(N)=O)[C@@H]3CCC(N)=O)C(C)(C)[C@@H]2CCC(N)=O.[C-]#N.[Co+3] | inactive: 1.13%
O=[N+]([O-])c1cc([N+](=O)[O-])c(Nc2nnnn2CCO)c([N+](=O)[O-])c1 | inactive: 0.9%
CCOC(=O)C(CC)C1=NC(C)(C)Cc2ccccc21.O=[N+]([O-])c1cc([N+](=O)[O-])c(O)c([N+](=O)[O-])c1 (stereo unspecified) | inactive: -2.55%
COc1ccccc1OP(C)(=O)Nc1c(C)cccc1C (stereo unspecified) | inactive: 0.64%
CN1CCCCC1COC(=O)C1(O)c2ccccc2CCc2ccccc21 (stereo unspecified) | inactive: 2.5%
CCCOc1ccc(NP(C)(=O)Oc2ccc(Cl)cc2)cc1 (stereo unspecified) | inactive: 1.74%
CP(=O)(Nc1ccc(SC(F)(F)F)cc1)Oc1ccccc1 (stereo unspecified) | inactive: -0.09%
O=[N+]([O-])c1cc([N+](=O)[O-])c(-n2nnc3ccccc32)c([N+](=O)[O-])c1 | inactive: -1.37%
O=[N+]([O-])c1cc([N+](=O)[O-])c(-c2cnn(-c3ccccc3)c2)c([N+](=O)[O-])c1 | inactive: -1.66%
Cc1nc2ccc3ccccc3c2s1.O=[N+]([O-])c1cc([N+](=O)[O-])c(O)c([N+](=O)[O-])c1 | inactive: 2.8%
COc1ccccc1OP(C)(=O)Nc1cccc(Br)c1 (stereo unspecified) | inactive: 0.93%
CCOC(=O)c1ccc(NP(C)(=O)Oc2cc(C)cc(C)c2)cc1 (stereo unspecified) | inactive: -3.7%
Cc1cc(C)cc(OP(C)(=O)Nc2ccc(C)cc2C)c1 (stereo unspecified) | inactive: -4.62%
Cc1ccc(C)c(NP(C)(=O)Oc2ccccc2)c1 (stereo unspecified) | inactive: -1.95%
Cc1cc(C)cc(OP(C)(=O)Nc2ccccn2)c1 (stereo unspecified) | inactive: -2.68%
CP(=O)(Nc1cccc(Br)c1)Oc1ccccc1 (stereo unspecified) | inactive: 2.21%
O=C(O)c1cccc(Nc2c([N+](=O)[O-])cc([N+](=O)[O-])cc2[N+](=O)[O-])c1 | inactive: 1.1%
CC1=NCCc2c1[nH]c1ccccc21.O=[N+]([O-])c1cc([N+](=O)[O-])c(O)c([N+](=O)[O-])c1 | inactive: 3.24%
O=[N+]([O-])c1cc([N+](=O)[O-])c(Nc2cccnc2)c([N+](=O)[O-])c1 | inactive: -2.15%

SMILES | inhibition
O=[N+]([O-])c1ccc2c(c1)C=Nc1ccccc1O2 | inactive: 1.4%
CC(C)(C)c1ccc(OP(C)(=O)Nc2ccc(SC(F)(F)F)cc2)cc1 (stereo unspecified) | inactive: 1.38%
Cc1cccc(C)c1OP(C)(N)=O (stereo unspecified) | inactive: -2.2%
COc1ccccc1OP(C)(=O)Nc1ccc(C)cc1 (stereo unspecified) | inactive: 0.92%
Cc1ccc(NP(C)(=O)Oc2ccccc2)c(C)c1 (stereo unspecified) | inactive: -1.21%
CCOC(=O)c1ccc(NP(C)(=O)Oc2ccccc2)cc1 (stereo unspecified) | inactive: 1.65%
Cc1cc(C)cc(OP(C)(N)=O)c1 (stereo unspecified) | inactive: -0.5%
COc1ccccc1OP(C)(=O)Nc1cc(Cl)ccc1C (stereo unspecified) | inactive: -1.1%
COc1ccc(OP(C)(=O)Nc2cccc(F)c2)cc1 (stereo unspecified) | inactive: -1.26%
CCN(CC)CCCOC(=O)C(O)(c1ccccc1)c1ccccc1 | inactive: 1.61%
Cc1cccc(C)c1OP(C)(=O)Nc1ccc(SC(F)(F)F)cc1 (stereo unspecified) | inactive: 1.04%
CP(=O)(Nc1ccc(SC(F)(F)F)cc1)Oc1ccc(Cl)cc1 (stereo unspecified) | inactive: 1.07%
CP(=O)(Oc1ccccc1)OC(c1ccccc1)C(F)(F)F (stereo unspecified) | inactive: -0.17%
CP(=O)(NC(=O)Nc1ccccc1)Oc1ccccc1 (stereo unspecified) | inactive: 2.54%
CCc1ccc(OP(C)(=O)N2CCN(c3ccc([N+](=O)[O-])cc3)CC2)cc1 (stereo unspecified) | inactive: 1.62%
Cc1cc(C)cc(OP(C)(=O)Nc2ccc(SC(F)(F)F)cc2)c1 (stereo unspecified) | inactive: -0.26%
CCOC(=O)c1ccc(NP(C)(=O)Oc2ccc(OC)cc2)cc1 (stereo unspecified) | inactive: 1.65%
O=[N+]([O-])c1cc([N+](=O)[O-])c(O)c([N+](=O)[O-])c1.c1ccc(Oc2ccncc2)cc1 | inactive: -0.58%
CCOP(C)(=S)SCC(=O)NC(C)C(=O)O (stereo unspecified) | inactive: -2.38%

SMILES | inhibition
CP(=O)(Nc1ccccn1)Oc1ccc(Cl)cc1 (stereo unspecified) | inactive: 2.04%
CP(=S)(Nn1cnnc1)Oc1ccccc1 (stereo unspecified) | inactive: 0.36%
CP(=O)(Nc1ccccc1Br)Oc1ccccc1 (stereo unspecified) | inactive: -1.38%
COc1ccccc1OP(C)(=O)Nc1ccccc1 (stereo unspecified) | inactive: 1.87%
Nc1ccc2c(ccc3cccnc32)n1.O=[N+]([O-])c1cc([N+](=O)[O-])c(O)c([N+](=O)[O-])c1 | inactive: 2.01%
CCOC(=O)c1ccc(NP(C)(=O)Oc2ccc(Cl)cc2)cc1 (stereo unspecified) | inactive: 0.26%
CP(=O)(OC12CC3CC(CC(C3)C1)C2)OC12CC3CC(CC(C3)C1)C2 | inactive: 1.98%
CCN(CC)CC(O)COC(=O)C(O)(c1ccccc1)C1CCCCC1 (stereo unspecified) | inactive: -1.09%
COc1ccc(OP(C)(=O)Nc2ccc(Br)cc2)cc1 (stereo unspecified) | inactive: 0.17%
COc1ccccc1OP(C)(=O)Nc1c(C)n(C)n(-c2ccccc2)c1=O (stereo unspecified) | inactive: -1.01%
O=C(OCCCN1CCCC1)C(O)(c1ccccc1)C1CCCCC1 (stereo unspecified) | inactive: -2.16%
CP(=O)(Oc1ccccc1)N1CCOC1=O (stereo unspecified) | inactive: -0.18%
CCc1ccc(OP(C)(=O)Nc2cccnc2)cc1 (stereo unspecified) | inactive: 1.02%
COc1ccccc1OP(C)(=O)Nc1ccccc1Br (stereo unspecified) | inactive: -1.16%
CC(C)(C)c1ccc(OP(C)(=O)O)cc1 | inactive: -0.5%
CP(=O)(Nc1ccc(Cl)cc1)Oc1ccc(F)cc1 (stereo unspecified) | inactive: 2.56%
CN(C)C(=O)c1c([N+](=O)[O-])cc([N+](=O)[O-])cc1[N+](=O)[O-] | inactive: -0.59%
COc1ccccc1OP(C)(=O)Nc1ccc(Br)cc1 (stereo unspecified) | inactive: -1.11%
